Compound potency records, mixed from different reports. Data source: NIAID ChemDB in PubChem.

All rows: whole-cell or culture tests; organism: Mycobacterium bovis

ECn: concentration that inhibits the pathogen or its effect by n%. Inhibition is in % at the dose shown (toxicity tests: loss of growth or viability). A number after MIC or MFC names an inhibition level or a share of isolates. Neighbouring rows are from separate reports. An empty or dashed field is not shown.

| SMILES | method | read-out | tested at | strain or isolate | result |
|---|---|---|---|---|---|
| COc1cc(CC(C)C(C)Cc2ccc3c(c2)OCO3)ccc1O | resazurin | MIC |  | BCG | 128 µM |
| CCOC(=O)CCCCCCCCCCCC[C@H]1C=CCC1 | GFP | MIC |  | BCG Pasteur | 0.26 µM |
| CCCCCCCCCCC[C@H](CC(=O)[C@@H](CC(C)C)NC=O)CC1OC(=O)[C@H]1CCCCCC |  | MIC99 |  |  | 7.5 µg/mL |
| CCc1cc(C(N)=S)ccn1 |  | MIC |  | BCG (PMV261::KASA) | 2 µg/mL |
| CCCCCCCCCCC[C@@H](C[C@@H]1OC(=O)[C@H]1CCCCCC)OC(=O)[C@H](CC(C)C)NC=O | broth dilution | MIC |  |  | 5 µg/mL |
| Oc1ccc(Nc2cnc3cc4ccccc4cc3n2)cc1O |  | EC50 |  | BCG | <1 µM |
| COc1ccc2[nH]c(=O)c(-c3ccccc3)c(O)c2c1 | luminescence | MIC90 |  | AN5 lux | 9.3 µM |
| O=C(O)CCCCCCCCCCCCC1C=CCC1 | GFP | MIC |  | BCG Pasteur | 2.36 µM |
| C/C=C/C/C=C/CCC(=O)[C@H]1O[C@H]1C(N)=O |  | MIC |  | BCG (PMV261::KASAB) | 0.2 µg/mL |
| O=c1[nH]c(=O)n([C@H]2C[C@H](F)[C@@H](CO)O2)cc1C(F)(F)F | resazurin | inhibition | 100 µg/mL | BCG | 0% |
| NNC(=O)c1ccncc1 |  | MIC |  | BCG (PMV261) | 0.06 µg/mL |
| c1ccc2cc3nc4c(nc3cc2c1)CCCC4 |  | EC50 |  | BCG | 12 µM |
| Cc1cn(C/C=C\CN2c3cccc4c3N(CCC4)S2(=O)=O)c(=O)[nH]c1=O | resazurin / absorbance | EC50 |  | BCG Pasteur | >160 µg/mL |
| CCc1cn([C@H]2C[C@H](O)[C@@H](CO)O2)c(=O)[nH]c1=O | resazurin | inhibition | 100 µg/mL | BCG | 0% |
| O=c1[nH]c2cc(O)ccc2c(O)c1-c1ccccc1 | luminescence | MIC90 |  | AN5 lux | 11.5 µM |
| Oc1ccc(-c2cnc3cc4ccccc4cc3n2)cc1O |  | EC50 |  | BCG | 32 µM |
| Cc1c(O)c2ccccc2[nH]c1=O | luminescence | MIC90 |  | AN5 lux | 9.5 µM |
| CC(C)CCOc1ccc(NC(=S)Nc2ccc(OCCC(C)C)cc2)cc1 |  | MIC |  | BCG (PMV261::KASAB) | 0.2 µg/mL |
| Cc1cn(C/C=C\Cn2c(=O)n3c4c(cccc42)CCC3)c(=O)[nH]c1=O | resazurin / absorbance | EC50 |  | BCG Pasteur | >160 µg/mL |
| Clc1cccc(-c2cnc3cc4ccccc4cc3n2)c1 |  | EC50 |  | BCG | 18 µM |
| CCCCCC/C=C/CCc1ccc(O)cc1 | resazurin | MIC |  | BCG | 128 µM |
| Clc1ccc(-c2cnc3cc4ccccc4cc3n2)cc1 |  | EC50 |  | BCG | <1 µM |
| O=c1[nH]c2c(O)cccc2c(O)c1-c1ccccc1 | luminescence | MIC90 |  | AN5 lux | 9.9 µM |

Again, the opening 2 rows:

{"SMILES": "COc1cc(CC(C)C(C)Cc2ccc3c(c2)OCO3)ccc1O", "method": "resazurin", "read-out": "MIC", "strain or isolate": "BCG", "result": "128 µM"}
{"SMILES": "CCOC(=O)CCCCCCCCCCCC[C@H]1C=CCC1", "method": "GFP", "read-out": "MIC", "strain or isolate": "BCG Pasteur", "result": "0.26 µM"}